A mixed list of measured activities; the numbers were collected in NIAID ChemDB.

All rows: tests in culture; organism: Mycobacterium avium intracellulare; endpoint: MIC

Conditions beyond the fields shown may differ between rows.

SMILES | strain | value
C#CCNC(=O)O[C@H]1C(O[C@@H]2[C@@H](C)[C@H](O[C@H]3C[C@@](C)(OC)[C@@H](OC(C)=O)[C@H](C)O3)[C@@H](C)C(=O)O[C@H](CC)[C@@](C)(O)[C@H](O)[C@@H](C)/C(=N/OCCCC3CCCCC3)[C@H](C)CC2(C)O)O[C@H](C)C[C@@H]1N(C)C | 20067 | 0.2 µg/mL
CO[C@H]1/C=C/O[C@@]2(C)Oc3c(C)c(O)c4c(O)c(c5c(c4c3C2=O)NC2(CCN(CC(C)C)CC2)N=5)=NC(=O)/C(C)=C\C=C\[C@H](C)[C@H](O)[C@@H](C)[C@@H](O)[C@@H](C)[C@H](OC(C)=O)[C@@H]1C | CIPT 140310019 | 0.05 µg/mL
CC[C@H]1OC(=O)[C@H](C)[C@@H](O[C@H]2C[C@@](C)(OC)[C@@H](O)[C@H](C)O2)[C@H](C)[C@@H](O[C@@H]2O[C@H](C)C[C@H](N(C)C)[C@H]2O)[C@](C)(OC)C[C@@H](C)C(=O)[C@H](C)[C@@H](O)[C@]1(C)O | N-475 (HIV-) | 0.125 µg/mL
CC1(C)S[C@@H]2[C@H](NC(=O)C(C(=O)O)c3ccccc3)C(=O)N2[C@H]1C(=O)O | CIPT 140310019 | 25 µg/mL
CC[C@H]1OC(=O)[C@H](C)[C@@H](OC(=O)Cc2ccccn2)[C@H](C)[C@@H](O[C@@H]2O[C@H](C)C[C@H](N(C)C)[C@H]2O)C(C)(O)C[C@@H](C)/C(=N\OCCCOc2ccccc2)[C@H](C)[C@@H](O)[C@]1(C)O | 20066 (clarithromycin-susceptible) | 6.25 µg/mL
NNC(=O)c1ccncc1 | N-809 (HIV-) | 2 µg/mL
CC[C@H]1OC(=O)[C@H](C)[C@@H](O[C@H]2C[C@@](C)(OC)[C@@H](OC(C)=O)[C@H](C)O2)[C@H](C)[C@@H](O[C@@H]2O[C@H](C)C[C@H](N(C)C)[C@H]2OC(=O)NNCc2cccnc2)C(C)(O)C[C@@H](C)/C(=N\OCCCC2CCCCC2)[C@H](C)[C@@H](O)[C@]1(C)O | 20066 (clarithromycin-susceptible) | 0.78 µg/mL
CCNC(=O)O[C@H]1C(O[C@@H]2[C@@H](C)[C@H](O[C@H]3C[C@@](C)(OC)[C@@H](OC(C)=O)[C@H](C)O3)[C@@H](C)C(=O)O[C@H](CC)[C@@](C)(O)[C@H](O)[C@@H](C)/C(=N/OCCCC3CCCCC3)[C@H](C)CC2(C)O)O[C@H](C)C[C@@H]1N(C)C | 20073 | 12.5 µg/mL
C[C@@H]1CN(c2c(F)c(N)c3c(=O)c(C(=O)O)cn(C4CC4)c3c2F)C[C@H](C)N1 | N-486 (HIV-) | 4 µg/mL
CO[C@H]1/C=C/O[C@@]2(C)Oc3c(C)c(O)c4c(O)c(c(/C=N/N5CCN(C6CCCC6)CC5)c(O)c4c3C2=O)NC(=O)/C(C)=C\C=C\[C@H](C)[C@H](O)[C@@H](C)[C@@H](O)[C@@H](C)[C@H](OC(C)=O)[C@@H]1C | 998 | ≤0.125 µg/mL
CCCCC(=O)O[C@H]1[C@H](C)[C@@H](O[C@@H]2O[C@H](C)C[C@H](N(C)C)[C@H]2O)C(C)(O)C[C@@H](C)/C(=N\OCCCOc2ccccc2)[C@H](C)[C@@H](O)[C@](C)(O)[C@@H](CC)OC(=O)[C@@H]1C | 20066 (clarithromycin-susceptible) | 3.13 µg/mL
CC[C@H]1OC(=O)[C@H](C)[C@@H](O[C@H]2C[C@@](C)(OC)[C@@H](OC(C)=O)[C@H](C)O2)[C@H](C)[C@@H](OC2O[C@H](C)C[C@H](N(C)C)[C@H]2OC(N)=O)C(C)(O)C[C@@H](C)/C(=N\OCCCC2CCCCC2)[C@H](C)[C@@H](O)[C@]1(C)O | 20067 | 1.56 µg/mL
CO[C@H]1/C=C/O[C@@]2(C)Oc3c(C)c(O)c4c(O)c(c5c(c4c3C2=O)NC2(CCN(CC(C)C)CC2)N=5)=NC(=O)/C(C)=C\C=C\[C@H](C)[C@H](O)[C@@H](C)[C@@H](O)[C@@H](C)[C@H](OC(C)=O)[C@@H]1C | N-919 (HIV-) | 0.05 µg/mL
CC[C@H]1OC(=O)[C@H](C)[C@@H](OC2C[C@@](C)(OC)[C@@H](O)[C@H](C)O2)[C@H](C)[C@@H](O[C@@H]2O[C@H](C)C[C@H](N(C)C)[C@H]2O)C(C)(O)C[C@@H](C)/C(=N\OCc2ccccc2)[C@H](C)[C@@H](O)[C@]1(C)O | 20066 (clarithromycin-susceptible) | 6.25 µg/mL
CCCCCNC(=O)O[C@H]1C(O[C@@H]2[C@@H](C)[C@H](O[C@H]3C[C@@](C)(OC)[C@@H](OC(C)=O)[C@H](C)O3)[C@@H](C)C(=O)O[C@H](CC)[C@@](C)(O)[C@H](O)[C@@H](C)/C(=N/OCCCC3CCCCC3)[C@H](C)CC2(C)O)O[C@H](C)C[C@@H]1N(C)C | 20075 | 0.2 µg/mL
Cc1onc(-c2ccccc2Cl)c1C(=O)N[C@@H]1C(=O)N2[C@@H]1SC(C)(C)[C@@H]2C(=O)O | CIPT 140310030 | 75 µg/mL
CC[C@H]1OC(=O)[C@H](C)[C@@H](O[C@H]2C[C@@](C)(OC)[C@@H](OC(C)=O)[C@H](C)O2)[C@H](C)[C@@H](O[C@@H]2O[C@H](C)C[C@H](N(C)C)[C@H]2OC(=O)NNC2CCCCC2)C(C)(O)C[C@@H](C)/C(=N\OCCCC2CCCCC2)[C@H](C)[C@@H](O)[C@]1(C)O | 20066 (clarithromycin-susceptible) | 0.39 µg/mL
C[C@@H](O)[C@H]1C(=O)N2C(C(=O)O)=C(SCCN=CN)C[C@H]12 | CIPT 140310030 | 10 µg/mL
CCCO/N=C1\[C@H](C)CC(C)(O)[C@H](O[C@@H]2O[C@H](C)C[C@H](N(C)C)[C@H]2O)[C@@H](C)[C@H](O[C@H]2C[C@@](C)(OC)[C@@H](OC(C)=O)[C@H](C)O2)[C@@H](C)C(=O)O[C@H](CC)[C@@](C)(O)[C@H](O)[C@H]1C | 20066 (clarithromycin-susceptible) | >50 µg/mL